Pooled drug test results. Numbers come from NIAID ChemDB, via PubChem.

Shared fields: tests in culture; organism: HIV-1; read by: p24; read-out: inhibition

Blank or dashed fields: not listed here.

{"smiles": "NCCSSCCN", "dose": "50 µM", "strain": "BaL", "cells": "Macrophage", "result": "55%"}
{"smiles": "O=C(O)C[C@@H]1C(=O)O[C@H]2[C@@H]3OC(=O)c4cc(O)c(O)c(O)c4-c4c(cc(O)c(O)c4O)C(=O)OC[C@H]2O[C@@H](OC(=O)c2cc(O)c(O)c(O)c2)[C@@H]3OC(=O)c2cc(O)c(O)c3c2[C@H]1[C@H](O)C(=O)O3", "dose": "20 µg/mL", "strain": "IIIB", "cells": "H9", "result": "90%"}
{"smiles": "NCC(=O)N1CCC[C@H]1C(=O)NCC(=O)O", "dose": "100 µM", "strain": "SF2", "cells": "H9", "result": "38%"}
{"smiles": "CCc1c(Sc2ccccc2)n(COCc2ccccc2)c(=O)[nH]c1=O", "dose": "0.028 µM", "strain": "A018C", "cells": "MT-4", "result": "90%"}
{"smiles": "CC(=O)N1CCC(C(=O)N(CCCN2CCC(Cc3ccc(C(N)=O)cc3)CC2)c2ccc(C)c(Cl)c2)CC1", "dose": "0.004 µM", "strain": "HHA Clinical isolates", "cells": "PBMC", "result": "90%"}
{"smiles": "Cc1cc2ccccc2c(-c2ccc3c4c(ccnc24)CCO3)c1[C@H](OC(C)(C)C)C(=O)O", "dose": "0.03 µM", "strain": "NL4-3", "cells": "PBMC", "result": "95%"}
{"smiles": "O=C(O)C1=C[C@@H](OC(=O)c2cc(O)c(O)c(O)c2)[C@@H](OC(=O)c2cc(O)c(O)c(O)c2)[C@H](OC(=O)c2cc(O)c(O)c(O)c2)C1", "dose": "20 µg/mL", "strain": "IIIB", "cells": "H9", "result": "23%"}
{"smiles": "CN1CCn2cc(C(=O)NCc3ccc(F)cc3)c(O)c2C1=O", "dose": "95 µM", "cells": "MT-4", "result": "≤20%"}
{"smiles": "O=C(O)C[C@H]1C(=O)O[C@H]2[C@H](OC(=O)c3cc(O)c(O)c(O)c3)[C@@H](OC(=O)c3cc(O)c(O)c4c3[C@H]1[C@H](O)C(=O)O4)[C@H](OC(=O)c1cc(O)c(O)c(O)c1)O[C@@H]2COC(=O)c1cc(O)c(O)c(O)c1", "dose": "1 µg/mL", "strain": "IIIB", "cells": "H9", "result": "50%"}
{"smiles": "CC(C)[C@H](NC(=O)[C@H](CO)NC(=O)[C@H](CS)NC(=O)CCC(=O)NCCCOCCOCCCN)C(=O)N[C@H](C(=O)N[C@@H](CS)C(=O)NCC(=O)O)[C@@H](C)O", "dose": "0.132 µM", "strain": "BaL", "cells": "PBMC(PHA STIM.) + PBMC", "result": "6%"}
{"smiles": "Nc1cc(S(=O)(=O)O)c2ccccc2c1N", "dose": "10 µg/mL", "cells": "H9", "result": "44%"}
{"smiles": "CNC(=O)c1cn2c(c1O)C(=O)N(Cc1ccc(F)cc1)CC2", "dose": "95 µM", "cells": "MT-4", "result": "≤20%"}
{"smiles": "CC(=O)N(O)CCCCCNC(=O)CCC(=O)N(O)CCCCCNC(=O)CCC(=O)N(O)CCCCCN", "dose": "10 µM", "strain": "IIIB", "cells": "H9", "result": "74%"}
{"smiles": "CC(=O)N(C)CCN(C)c1nc(C(=O)NCc2ccc(F)cc2)c(O)c2ncccc12", "dose": "0.625 µM", "conditions": "50% human serum", "cells": "MT-4", "result": ">95%"}
{"smiles": "CCCCCCCCCCCCCCCC(=O)NC1C(COP(=O)(O)OC2CC(COP(=O)(O)OC3C(O)C(CO)OC3n3cnc4c(N)ncnc43)OC2n2cnc3c(N)ncnc32)OC(n2cnc3c(N)ncnc32)C1O", "dose": "300 µM", "result": "100%"}
{"smiles": "O=P(O)(O)OP(=O)(O)OP(=O)(O)O", "dose": "100 µg/mL", "strain": "IIIB", "cells": "H9", "result": "0%"}
{"smiles": "CC(=O)CCC(=O)NCCCOCCOCCCNC(=O)CNC(=O)[C@H](CS)NC(=O)[C@@H](NC(=O)[C@@H](NC(=O)[C@H](CO)NC(=O)[C@@H](N)CS)C(C)C)[C@@H](C)O", "dose": "0.66 µM", "strain": "BaL", "cells": "PBMC(PHA STIM.) + PBMC", "result": "34%"}
{"smiles": "O=C(CCCCCCCCCCC(=O)Nc1cc(S(=O)(=O)O)cc2cc(S(=O)(=O)O)cc(O)c12)Nc1cc(S(=O)(=O)O)cc2cc(S(=O)(=O)O)cc(O)c12", "dose": "2.5 µg/mL", "cells": "H9", "result": "46%"}
{"smiles": "CO[C@H]1C[C@@H]2CC[C@@H](C)[C@@](O)(O2)C(=O)C(=O)N2CCCC[C@H]2C(=O)O[C@H]([C@H](C)C[C@@H]2CC[C@@H](O)[C@H](OC)C2)CC(=O)[C@H](C)/C=C(\\C)[C@@H](O)[C@@H](OC)C(=O)[C@H](C)C[C@H](C)/C=C/C=C/C=C/1C", "dose": "0.001 µM", "strain": "93BR029 R5 clinical isolate", "cells": "PBMC", "result": "73%"}
{"smiles": "CCNC(=O)c1cn2c(c1O)C(=O)N(Cc1ccc(F)cc1)CC2", "dose": "95 µM", "cells": "MT-4", "result": "≤20%"}
{"smiles": "NC(=O)NO", "dose": "200 µM", "cells": "H9", "result": "68.4%"}
{"smiles": "O=C1O[C@@H]2[C@@H](OC(=O)c3cc(O)c(O)c(O)c3-c3c1cc(O)c(O)c3O)[C@@H](O)O[C@@H]1COC(=O)c3cc(O)c(O)c(O)c3-c3c(O)c(O)c4oc(=O)c5c(c(O)c(O)c6oc(=O)c3c4c65)-c3c(cc(O)c(O)c3O)C(=O)O[C@@H]21", "dose": "1 µg/mL", "strain": "IIIB", "cells": "H9", "result": "20%"}
{"smiles": "CC(C)CN(C[C@@H](O)[C@H](Cc1ccccc1)NC(=O)O[C@H]1CO[C@H]2OCC[C@H]21)S(=O)(=O)c1ccc2nc(NC3CCN(C4CCCC4)CC3)sc2c1", "dose": "7 nM", "strain": "LAI", "cells": "PBMC", "result": "90%"}
{"smiles": "NCC(=O)N1CCC[C@H]1C(=O)O", "dose": "100 µM", "strain": "SF2", "cells": "H9", "result": "11%"}
{"smiles": "O=C1OCC2OC(O)C(O)C(O)C2OC(=O)c2cc(O)c(O)c(O)c2-c2c(O)c(O)c3oc(=O)c4c(c(O)c(O)c5oc(=O)c2c3c54)-c2c1cc(O)c(O)c2O", "dose": "1 µg/mL", "strain": "IIIB", "cells": "H9", "result": "30%"}
{"smiles": "Cc1ccc(C)c(NS(=O)(=O)c2cc(C(=O)NCc3ccccn3)ccc2Cl)c1", "mutations": "Nevirapine resistant", "dose": "5 µM", "strain": "Clinical isolate", "cells": "C8166", "result": "90%"}
{"smiles": "NC(=O)CNC(=O)[C@@H]1CCCN1", "dose": "100 µM", "strain": "SF2", "cells": "H9", "result": "40%"}
{"smiles": "Cc1ccc(-c2ccc3c(c2)C=C(C(=O)Nc2ccc(C[N+](C)(C)C4CCOCC4)cc2)CCC3)cc1", "dose": "1 µM", "strain": "PCP1 CLADE C", "cells": "PBMC", "result": "10.1%"}
{"smiles": "CNC(=O)c1cn2c(c1O)C(=O)N(Cc1ccc(F)c(F)c1)CC2", "dose": "95 µM", "cells": "MT-4", "result": "≤20%"}
{"smiles": "NCCSSCCN", "dose": "200 µM", "strain": "IIIB", "cells": "PBL", "result": "100%"}
{"smiles": "O=C(NC1CC1)c1cn2c(c1O)C(=O)N(Cc1ccc(F)cc1)CC2", "dose": "95 µM", "cells": "MT-4", "result": "≤20%"}
{"smiles": "Nc1nc(NC2CC2)c2ncn([C@H]3C=C[C@@H](CO)C3)c2n1", "dose": "0.25 µM", "strain": "SBH Clinical isolate", "cells": "PBMC", "result": "4%"}

Repeating the final 4 entries:

smiles	mutations	dose	strain	conditions	cells	result
CNC(=O)c1cn2c(c1O)C(=O)N(Cc1ccc(F)c(F)c1)CC2		95 µM			MT-4	≤20%
NCCSSCCN		200 µM	IIIB		PBL	100%
O=C(NC1CC1)c1cn2c(c1O)C(=O)N(Cc1ccc(F)cc1)CC2		95 µM			MT-4	≤20%
Nc1nc(NC2CC2)c2ncn([C@H]3C=C[C@@H](CO)C3)c2n1		0.25 µM	SBH Clinical isolate		PBMC	4%

Inhibition is in % at the dose shown (toxicity tests: loss of growth or viability). Conditions beyond the fields shown may differ between rows.